Results of unrelated studies side by side (data: NIAID ChemDB).

Shared fields: growth or infection tests; organism: HIV-1; method: MTT; read-out: EC50

ECn is the concentration giving n% inhibition of infection, replication or growth. Rows are shuffled and stem from different studies. Blank or dashed fields: not listed here.

compound | setting | changes | strain | cells | result
NS(=O)(=O)c1ccc(N2C(=O)CSC2c2ccccc2Cl)cc1 | - | - | IIIB | MT-2 | 8.153 µM
Cc1cc(C#N)cc(C)c1Oc1nc(NC2CCN(Cc3ccc(S(N)(=O)=O)cc3)CC2)nc2sccc12 | - | NNRTI-resistant (RT L100I) | IIIB | MT-4 | 0.00444 µM
CC(C)C(NS(=O)(=O)c1ccc(Br)cc1)c1nnc(Nc2ccc(F)cc2)s1 | - | - | IIIB | MT-4 | >10.08 µM
COC(=O)N[C@H](C(=O)N[C@@H](Cc1ccccc1)C[C@H](O)[C@H](Cc1ccc(-c2ccc(CO)nc2)cc1)NC[C@@H](NC(=O)OC)C(C)(C)C)C(C)(C)C | - | - | pNL4-3 | MT-4 | 14 nM
Cc1cc(C#N)cc(C)c1Oc1nc(NC2CCC(NCc3ccccc3)CC2)nc2ccsc12 | - | - | RES056 | MT-4 | >2.98 µM
Cc1cc(C#N)cc(C)c1Oc1nc(Nc2ccc(C#N)cc2)ncc1SCC(=O)NCCN1CCN(C(=O)OC(C)(C)C)CC1 | - | Y181C | - | MT-4 | 0.1362 µM
Cc1cn([C@H]2C[C@H](N=[N+]=[N-])[C@@H](CO)O2)c(=O)[nH]c1=O | - | AZT-resistant | IIIB | MT-4 | 0.35 µM
Cc1ccnc2c1NC(=O)c1cccnc1N2C1CC1 | - | Y181C | IIIB | MT-4 | 10 µM
O=C1CS/C(=N\c2nc3ccccc3s2)N1c1cccc(C(F)(F)F)c1 | - | - | IIIB | MT-4 | >67 µM
Cc1ccc(S(=O)(=O)NC(Cc2ccccc2)c2nnc(Nc3ccc(Br)cc3)s2)cc1 | - | - | IIIB | MT-4 | >1.58 µM
C[C@]12CCC3C(CC=C4CC(O)CC[C@@]43C)C1CCC2C1=NN(C(N)=S)C(c2ccc(Br)cc2)C1 | - | - | IIIB | MT-4 | >11.78 µM
Cc1cn([C@H]2C[C@H](N=[N+]=[N-])[C@@H](CO)O2)c(=O)[nH]c1=O | - | - | IIIB | MT-4 | 0.0028 µM
N#Cc1cc(/C=C/Cl)cc(Oc2cc(Nc3nccc(C4CC4)n3)ccc2C#N)c1 | - | - | IIIB | MT-2 | 0.49 µM
Cc1cc(/C=C/C#N)cc(C)c1Oc1nc(NC2CCN(Cc3ccncc3)CC2)nc2ccsc12 | - | NNRTI-resistant (RT F227L V106A) | IIIB | MT-4 | 0.0148 µM
Cc1cc(C#N)cc(C)c1Oc1nc(Nc2ccc(C#N)cc2)ncc1SCC(=O)NC1CCN(C(=O)OC(C)(C)C)CC1 | - | - | IIIB | MT-4 | 0.0078 µM
COc1ccc(Nc2nnc(C(Cc3ccccc3)NS(=O)(=O)c3ccc(C)cc3)s2)cc1 | - | - | IIIB | MT-4 | >63.55 µM
O=C(OC[C@H]1O[C@@H](OC(=O)c2cc(OS(=O)(=O)O)c(OS(=O)(=O)O)c(OS(=O)(=O)O)c2)[C@H](OC(=O)c2cc(OS(=O)(=O)O)c(OS(=O)(=O)O)c(OS(=O)(=O)O)c2)[C@@H](OC(=O)c2cc(OS(=O)(=O)O)c(OS(=O)(=O)O)c(OS(=O)(=O)O)c2)[C@@H]1OC(=O)c1cc(OS(=O)(=O)O)c(OS(=O)(=O)O)c(OS(=O)(=O)O)c1)c1cc(OS(=O)(=O)O)c(OS(=O)(=O)O)c(OS(=O)(=O)O)c1 | 5 d | - | IIIB | MT-4 | 0.58 µg/mL
Nc1ccn([C@H]2CC[C@@H](CO)O2)c(=O)n1 | - | K103N | - | MT-4 | 0.33 µM
Cc1nc2sc3c(c2c(Sc2ccccc2)c1C(OC(C)(C)C)C(=O)O)CCCC3 | - | - | IIIB | MT-4 | 25.6 µM
C#Cc1ccc(Nc2nccc(Oc3c(C)cc(-c4cn(CCc5cccs5)nn4)cc3C)n2)cc1 | - | - | RES056 | MT-4 | >5.53 µM
Cc1cc(C#N)cc(C)c1Oc1nc(Nc2ccc(C#N)cc2)nc(N)c1Br | - | - | IIIB | MT-4 | 0.0032 µM
C#Cc1ccc(Nc2nccc(Oc3c(C)cc(-c4cn(Cc5ccc(C(=O)OC)cc5)nn4)cc3C)n2)cc1 | - | Y181C | IIIB | MT-4 | 2.11 µM
COCCNC(=O)CSc1cnc(Nc2ccc(C#N)cc2)nc1Oc1c(C)cc(C#N)cc1C | - | E138K | - | MT-4 | 0.0087 µM
Cc1cc(C)c(Nc2nc(NC3CCN(Cc4ccc(Cl)c(Cl)c4)CC3)nc3nc[nH]c23)c(C)c1 | - | - | IIIB | MT-4 | ≥45.25 µM
CN1C(=O)[C@]2(C[C@@H]2c2ccccc2)c2cc(Cl)ccc21 | - | - | IIIB | MT-4 | >10.24 µg/mL
COC(=O)N[C@H](C(=O)N[C@@H](Cc1ccccc1)C[C@H](O)[C@H](Cc1ccc(-c2cncnc2)cc1)NC[C@@H](NC(=O)OC)C(C)(C)C)C(C)(C)C | 50% human serum | - | pNL4-3 | MT-4 | 58 nM
COc1ccnc(Nc2ccc(C#N)c(Oc3cc(C)cc(C)c3)c2)n1 | - | - | IIIB | MT-2 | 0.49 µM
COC(=O)c1ccc(CN2CCC(Nc3nc(Oc4c(C)cc(C#N)cc4C)c4ccsc4n3)CC2)cc1 | - | - | RES056 | MT-4 | 15.3 µM
COc1cc(/C=C/c2nc(NC(=O)Nc3ccccc3C)c3ccccc3n2)cc(OC)c1OC | - | - | IIIB | MT-4 | >1.89 µg/mL
Cc1cc(C#N)cc(C)c1Oc1nc(Nc2ccc(C#N)cc2)ncc1SCC(=O)NC1CC1 | - | F227L V106A | - | MT-4 | 0.106 µM
O=C1CSC(c2c(Cl)cccc2Cl)N1CCc1ccccc1 | - | - | IIIB | MT-2 | 228 µM
Nc1ncnc2c1ncn2[C@H]1CC[C@](CCP(=O)(O)O)(C(F)(F)F)C1 | - | - | - | MT-4 | 8.3 µM
C[C@]12CCC3C(CC=C4C[C@@H](O)CC[C@@]43C)C1CCC2C(=O)/C=C/c1ccoc1 | - | - | IIIB | MT-4 | >12 µM
Nc1ncnc2c1ncn2[C@H]1CC[C@](/C=C/P(=O)(O)O)(C(F)(F)F)C1 | - | - | - | MT-4 | 42.5 µM
Cc1cc(/C=C/C#N)cc(C)c1Oc1ccnc(Nc2ccc(CN3CCN(S(=O)(=O)N(C)C)CC3)cc2)n1 | - | K103N | - | MT-4 | 0.011 µM
C[C@]12CCC3C(CC=C4C[C@@H](O)CC[C@@]43C)C1CCC2C(=O)/C=C/c1ccc(C(F)(F)F)cc1 | - | - | IIIB | MT-4 | >55.38 µM
Nc1nc(N)c2ncn([C@H]3CC[C@](/C=C/P(=O)(O)O)(C(F)(F)F)C3)c2n1 | - | - | - | MT-4 | 69.7 µM
COc1nc(Nc2ccc(C#N)c(Oc3cccc(/C=C/C#N)c3)c2)nc(OC)n1 | - | - | IIIB | MT-2 | 0.85 µM
CNC(=O)c1cccc(-c2ccc(C[C@H](NC[C@@H](NC(=O)OC)C(C)(C)C)[C@@H](O)C[C@H](Cc3ccccc3)NC(=O)[C@@H](NC(=O)OC)C(C)(C)C)cc2)c1 | 50% human serum | - | pNL4-3 | MT-4 | 842 nM
COc1cc(/C=C/c2nc(NC(=S)Nc3cccc(Cl)c3)c3ccccc3n2)cc(OC)c1OC | - | - | IIIB | MT-4 | >3.25 µg/mL
Cc1cc(C#N)cc(C)c1Oc1nc(Nc2ccc(C#N)cc2)ncc1SCC(=O)Nc1ccc(S(C)(=O)=O)cc1 | - | Y188L | - | MT-4 | 0.2095 µM
Cc1ccc(C2CC(C3CCC4C5CC=C6CC(O)CC[C@]6(C)C5CC[C@]34C)=NN2C(N)=S)cc1 | - | - | IIIB | MT-2 | >7.49 µM
CN1C(=O)[C@]2(C[C@@H]2c2ccc(Cl)cc2)c2ccccc21 | - | - | IIIB | MT-4 | >7.6 µg/mL
Cc1cc(C)c(Nc2nc(NC3CCN(Cc4ccccc4C#N)CC3)nc3nc[nH]c23)c(C)c1 | - | - | IIIB | MT-4 | 27.33 µM
Cc1cc(C#N)cc(C)c1Oc1nc(NC2CCC(NCc3ccc(F)cc3)CC2)nc2ccsc12 | - | - | RES056 | MT-4 | >2.77 µM
Cc1cc(C#N)cc(C)c1Oc1nc(Nc2ccc(C#N)cc2)ncc1SCC(=O)NCC1CCCO1 | - | F227L V106A | - | MT-4 | 0.2944 µM
N#C/C=C/c1cccc(Oc2cc(Nc3ncnc(C4CC4)n3)ccc2C#N)c1 | - | - | IIIB | MT-2 | 0.021 µM
COC(=O)N[C@H](C(=O)N[C@@H](Cc1ccccc1)C[C@H](O)[C@H](Cc1ccc(-c2ccncc2)cc1)NC[C@@H](NC(=O)OC)C(C)(C)C)C(C)(C)C | 50% human serum | - | - | MT-4 | 34 nM
CC(NC(=S)Nc1nc2ccccc2s1)c1ccccc1 | - | - | IIIB | MT-4 | 1 µM
C=CCNC(=O)CSc1cnc(Nc2ccc(C#N)cc2)nc1Oc1c(C)cc(C#N)cc1C | - | E138K | - | MT-4 | 0.0113 µM
COc1cc(/C=C/C(=O)OC(Cc2cc(OC)c(OC)c(OC)c2)C(=O)O)ccc1O | - | - | - | MDM | 8.24 µM
CC(C)CN(C[C@@H](O)[C@H](Cc1ccccc1)NC(=O)O[C@H]1CO[C@H]2OCC[C@H]21)S(=O)(=O)c1ccc2[nH]c(O)c(C=NCc3nc4ccccc4[nH]3)c2c1 | - | - | HXB2 | MT-4 | >0.4 µM
CC(C)C(NS(=O)(=O)c1ccc(Cl)cc1)c1nnc(Nc2ccc(Br)cc2)s1 | - | - | IIIB | MT-4 | >4.98 µM
C[C@]12CCC3C(CC=C4CC(O)CC[C@@]43C)C1CCC2C1=NN(C(N)=S)C(c2ccc(C(F)(F)F)cc2)C1 | - | - | IIIB | MT-4 | >7.92 µM
COc1ccc(OC)c(C2SCC(=O)N2CCc2ccccc2)c1 | - | - | IIIB | MT-2 | 303 µM
Nc1nc(=O)n([C@@H]2CC[C@H](CO)O2)cc1F | - | - | RF | MT-4 | 1.5 µM
Cc1cn([C@H]2C[C@H](N=[N+]=[N-])[C@@H](CO)O2)c(=O)[nH]c1=O | - | - | IIIB | MT-4 | 0.007 µM
Cc1cc(C#N)cc(C)c1Oc1nc(Nc2ccc(C#N)cc2)ncc1SCC(=O)NCCN1CCOCC1 | - | Y181C | - | MT-4 | 0.0235 µM
CNC(=O)c1ccc(-c2ccc(C[C@H](NC[C@@H](NC(=O)OC)C(C)(C)C)[C@@H](O)C[C@H](Cc3ccccc3)NC(=O)[C@@H](NC(=O)OC)C(C)(C)C)cc2)cc1 | 50% human serum | - | pNL4-3 | MT-4 | 56 nM
Cc1cnc(N2C(=O)CSC2c2c(Cl)cccc2Cl)c(C)c1 | - | - | IIIB | MT-2 | 0.082 µM
Cc1cc(C)c(Nc2nc(NC3CCN(Cc4ccc(C#N)cc4)CC3)nc3nc[nH]c23)c(C)c1 | - | - | IIIB | MT-4 | >26.79 µM
N#C/C=C/c1cccc(Oc2cc(Nc3nccc(C4CC4)n3)ccc2C#N)c1 | - | - | IIIB | MT-2 | 0.032 µM
COC(=O)CCCn1cc(-c2cccc(C(=O)N[C@@H](Cc3ccccc3)C(=O)N(C)c3ccc(OC)cc3)c2)nn1 | - | - | NL4-3 | TZM-bl | >35.99 µM
Cc1cc(/C=C/C#N)cc(C)c1Oc1nc(NC2CCN(Cc3ccccn3)CC2)nc2ccsc12 | - | - | RES056 | MT-4 | 0.122 µM
COc1cc(/C=C/c2nc(NC(=O)Nc3ccccc3)c3ccccc3n2)cc(OC)c1OC | - | - | IIIB | MT-4 | >2.13 µg/mL

A second listing of 4 rows from above:

compound,setting,changes,strain,cells,result
COC(=O)N[C@H](C(=O)N[C@@H](Cc1ccccc1)C[C@H](O)[C@H](Cc1ccc(-c2cncnc2)cc1)NC[C@@H](NC(=O)OC)C(C)(C)C)C(C)(C)C,50% human serum,-,pNL4-3,MT-4,58 nM
Cc1cc(C)c(Nc2nc(NC3CCN(Cc4ccccc4C#N)CC3)nc3nc[nH]c23)c(C)c1,-,-,IIIB,MT-4,27.33 µM
C#Cc1ccc(Nc2nccc(Oc3c(C)cc(-c4cn(Cc5ccc(C(=O)OC)cc5)nn4)cc3C)n2)cc1,-,Y181C,IIIB,MT-4,2.11 µM
C[C@]12CCC3C(CC=C4CC(O)CC[C@@]43C)C1CCC2C1=NN(C(N)=S)C(c2ccc(Br)cc2)C1,-,-,IIIB,MT-4,>11.78 µM